From patent US20230014151A1, “COMBINATION ANTIVIRAL THERAPY FOR MEASLES” (The Trustees of Columbia University in the City of New York, priority 2019, published 2023)

Target: T1, measles virus (MeV) fusion protein F, wild type, expressed on cells (measles virus), Q786F3
T1 chain: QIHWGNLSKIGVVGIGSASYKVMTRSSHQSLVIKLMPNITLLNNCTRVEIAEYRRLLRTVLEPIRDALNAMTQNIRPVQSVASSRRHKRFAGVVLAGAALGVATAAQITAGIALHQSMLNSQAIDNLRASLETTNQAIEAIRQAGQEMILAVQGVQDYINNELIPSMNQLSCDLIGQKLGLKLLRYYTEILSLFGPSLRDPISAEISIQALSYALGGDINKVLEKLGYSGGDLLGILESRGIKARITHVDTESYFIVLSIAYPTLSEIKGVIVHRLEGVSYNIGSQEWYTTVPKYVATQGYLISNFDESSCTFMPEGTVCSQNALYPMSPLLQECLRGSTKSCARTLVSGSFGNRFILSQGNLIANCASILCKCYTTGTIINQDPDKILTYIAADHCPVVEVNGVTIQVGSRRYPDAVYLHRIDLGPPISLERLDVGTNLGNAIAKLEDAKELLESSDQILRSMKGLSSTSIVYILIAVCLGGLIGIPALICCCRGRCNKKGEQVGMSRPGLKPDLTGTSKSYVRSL
Assay: cell-based or functional assay

Row | Binder | IC50, beta-galactosidase complementation-based fusion assay, CD150 target cells | IC90, beta-galactosidase complementation-based fusion assay, CD150 target cells
1 | FFGC (modifications not checked) [FIP-chol (no GSGSG)] | > 1000 nM | > 1000 nM
2 | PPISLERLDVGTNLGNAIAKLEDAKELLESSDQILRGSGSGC (modifications not checked) [[HRC450-485-peg4]2-chol] | 100 nM | 
3 | FFGC (modifications not checked) [[FIP]2-peg11 (no GSGSG)] | > 600 nM | > 1000 nM
4 | FFGC (modifications not checked) [[FIP-peg4]2-chol (no GSGSG)] | > 700 nM | > 1000 nM
5 | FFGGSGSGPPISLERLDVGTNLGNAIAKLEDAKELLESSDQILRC (modifications not checked) [[FIP-HRC450-485] (no GSGSG) peg24 chol] | 480 nM | > 900 nM
6 | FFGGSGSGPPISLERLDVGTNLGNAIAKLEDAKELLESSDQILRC (modifications not checked) [FIP-HRC450-485-chol (no GSGSG)] | 70.8 nM | 
7 | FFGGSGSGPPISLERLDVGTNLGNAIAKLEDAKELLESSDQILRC (modifications not checked) [FIP-HRC450-485 (no GSGSG), Monomer N-Maleimide] | > 1000 nM | > 1000 nM
8 | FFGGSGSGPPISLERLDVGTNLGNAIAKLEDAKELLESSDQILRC (modifications not checked) [[FIP-HRC450-485]2-peg11 (no GSGSG)] | 516 nM | > 1000 nM
9 | FFGGSGSGC (modifications not checked) [[FIP]2-peg11] | > 1000 nM | > 1000 nM
10 | FFGC (modifications not checked) [FIP-peg4-chol (no GSGSG)] | > 400 nM | > 900 nM
11 | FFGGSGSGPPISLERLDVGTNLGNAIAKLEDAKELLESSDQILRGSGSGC (modifications not checked) [[FIP-HRC450-485] peg24 chol] |  | > 900 nM
12 | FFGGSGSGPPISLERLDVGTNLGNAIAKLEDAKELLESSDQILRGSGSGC (modifications not checked) [FIP-HRC450-485, Monomer N-Maleimide] | > 1000 nM | > 1000 nM
13 | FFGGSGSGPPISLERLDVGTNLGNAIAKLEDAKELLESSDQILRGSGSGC (modifications not checked) [FIP-HRC450-485-peg4-chol] |  | > 700 nM
14 | FFGGSGSGC (modifications not checked) [[FIP-peg4]2-chol] | 510 nM | 
15 | FFGC (modifications not checked) [FIP (no GSGSG), Monomer N-Maleimide] | > 1000 nM | > 1000 nM
